{
  "source": "patent US20250049831A1",
  "about": "“ANTIVIRAL USE OF BISE[…], AND BISEPOXYLIGNAN COMPOSITION AND PREPARATION OF BISE[…]” (priority 2021, published 2025)",
  "key": {"[1]": {"tested_on": "influenza virus"}, "[2]": {"tested_on": "parainfluenza virus"}, "[3]": {"tested_on": "parainfluenza virus", "type": "in vivo, Kunming mice", "conditions": "low dose 3.25 mg/kg; for Hemagglutination titer inhibition rate (%): Day 5; for Hemagglutination titer: lung suspension, Day 5, […]"}, "[4]": {"tested_on": "influenza virus", "type": "in vivo, Kunming mice", "conditions": "low dose 3.25 mg/kg; for Hemagglutination titer inhibition rate (%): Day 5; for Hemagglutination titer: lung suspension"}, "[5]": {"conditions": "influenza virus 15LD50, 19.5 mg/kg gavage once a day 5 days"}, "[6]": {"conditions": "parainfluenza virus 15LD50, 19.5 mg/kg gavage once a day 5 days"}, "[7]": {"conditions": "influenza virus 15LD50, high dose 13.0 mg/kg gavage once a day 5 days"}, "[8]": {"conditions": "influenza virus 15LD50, low dose 3.25 mg/kg gavage once a day 5 days"}, "[9]": {"conditions": "parainfluenza virus 15LD50, high dose 13.0 mg/kg gavage once a day 5 days, listed as Lianqiaoxinside, 13 mg/kg"}, "[10]": {"conditions": "parainfluenza virus 15LD50, low dose 3.25 mg/kg gavage once a day 5 days, listed as Lianqiaoxinside, 3.25 mg/kg"}, "[11]": {"conditions": "parainfluenza virus 15LD50, high dose 13.0 mg/kg gavage once a day 5 days"}, "[12]": {"conditions": "parainfluenza virus 15LD50, low dose 3.25 mg/kg gavage once a day 5 days"}},
  "note": "Where “and” joins values, the source holds several entries; their conditions need not be identical. Equal entries are not always repeated. Where two headings read alike, the source gives them in different places.",
  "data": [
    {"compound": "CCOC(=O)C1=C[C@@H](OC(CC)CC)[C@H](NC(C)=O)[C@@H](N)C1", "note": "[Oseltamivir phosphate, reference compound]", "values": [
      {"measurement": "Lung index (X ± S)", "setting": "[1]; [5]", "value": "1.188 ± 0.156"},
      {"measurement": "Lung index inhibition rate (%)", "setting": "[1]; [5]", "value": 21.01, "unit": "%"},
      {"measurement": "Lung index (X ± S)", "setting": "[2]; [6]", "value": "1.315 ± 0.623"},
      {"measurement": "Lung index inhibition rate (%)", "setting": "[2]; [6]", "value": 17.97, "unit": "%"}
    ]},
    {"compound": "COc1cc(O)cc(C2OCC3C(c4ccc(OC5OC(CO)C(O)C(O)C5O)c(OC)c4)OCC23)c1", "note": "[Serial No. 1, (7,8,7′,8′)-7,7′-bisepoxy-5′-hydroxy-3,3′hydroxy-bismethoxylignan, 4-O-β-D-glucoside]", "values": [
      {"measurement": "Hemagglutination titer inhibition rate (%)", "setting": "[3]", "value": 32.84, "unit": "%"},
      {"measurement": "Hemagglutination titer", "setting": "[3]", "value": "23.25 ± 0.847"},
      {"measurement": "Hemagglutination titer inhibition rate (%)", "setting": "[4]", "value": 38.43, "unit": "%"},
      {"measurement": "Hemagglutination titer", "setting": "[4]; Day 5, titer (InX)", "value": "21.84 ± 0.511"},
      {"measurement": "Lung index (X ± S)", "setting": "[1]; [7]", "value": "1.169 ± 0.623"},
      {"measurement": "Lung index inhibition rate (%)", "setting": "[1]; [7]", "value": 22.27, "unit": "%"},
      {"measurement": "Lung index (X ± S)", "setting": "[1]; [8]", "value": "1.185 ± 0.379"},
      {"measurement": "Lung index inhibition rate (%)", "setting": "[1]; [8]", "value": 21.21, "unit": "%"},
      {"measurement": "Lung index (X ± S)", "setting": "[2]; [9]", "value": "1.270 ± 0.863 and 1.267 ± 0.015"},
      {"measurement": "Lung index inhibition rate (%)", "setting": "[2]; [9]", "value": "20.77% and 20.96%"},
      {"measurement": "Lung index (X ± S)", "setting": "[2]; [10]", "value": "1.372 ± 0.115 and 1.374 ± 0.848"},
      {"measurement": "Lung index inhibition rate (%)", "setting": "[2]; [10]", "value": "14.41% and 14.29%"}
    ]},
    {"compound": "COc1ccc([C@H]2OC[C@H]3[C@@H]2CO[C@H]3c2ccc(O[C@@H]3O[C@H](CO)[C@@H](O)[C@H](O)[C@H]3O)c(OC)c2)cc1OC", "note": "[Serial No. 2, phillyrin]", "values": [
      {"measurement": "Hemagglutination titer inhibition rate (%)", "setting": "[3]", "value": 32.81, "unit": "%"},
      {"measurement": "Hemagglutination titer", "setting": "[3]", "value": "23.26 ± 0.219"},
      {"measurement": "Hemagglutination titer inhibition rate (%)", "setting": "[4]", "value": 38.31, "unit": "%"},
      {"measurement": "Hemagglutination titer", "setting": "[4]; Day 5, […]", "value": "21.88 ± 0.639"}
    ]},
    {"compound": "COc1cc([C@H]2OC[C@H]3[C@@H]2CO[C@H]3c2ccc(OC)c(OC)c2)ccc1O", "note": "[Serial No. 3, phillygenin]", "values": [
      {"measurement": "Hemagglutination titer inhibition rate (%)", "setting": "[3]", "value": 32.21, "unit": "%"},
      {"measurement": "Hemagglutination titer", "setting": "[3]", "value": "23.47 ± 0.893"},
      {"measurement": "Hemagglutination titer inhibition rate (%)", "setting": "[4]", "value": 37.78, "unit": "%"},
      {"measurement": "Hemagglutination titer", "setting": "[4]; Day 5, […]", "value": "22.07 ± 0.455"},
      {"measurement": "Lung index (X ± S)", "setting": "[2]; [11]", "value": "1.277 ± 0.056"},
      {"measurement": "Lung index inhibition rate (%)", "setting": "[2]; [11]", "value": 20.34, "unit": "%"},
      {"measurement": "Lung index (X ± S)", "setting": "[2]; [12]", "value": "1.379 ± 0.560"},
      {"measurement": "Lung index inhibition rate (%)", "setting": "[2]; [12]", "value": 13.97, "unit": "%"}
    ]}
  ]
}
